Reference: publication PMC3767830

System: O=C(O)[C@@H]1CCCN1
Experiment: purified protein
Settings: 0-500 mM proline, 5 mM Tris-HCl pH 8.0, 8 mM MgCl2, 2 mM DTT, 20 μM FAD, 4 mM 2-AB, 30°C

**Q.** What does the source list for “GST-ProdhΔ21 (Cryphonectria parasitica EP155)”?
**A.** Km: 38.15 ± 3.523 mM; kcat: 0.022 ± 0.005 s⁻¹
